These are literature values, as cited in PMC2770954.

In general, pKd refers to the negative decadic logarithm of the Kd, by convention in mol/L.

This series has as its target HIV-1 reverse transcriptase p51 p51 (Human immunodeficiency virus 1) (UniProt O93215). The following applies: cited from earlier work.

pKd: −log10 of the molar value.

Turning to “HIV-1 reverse transcriptase p51 p51 (from UniProt O93215)”, the pKd is 3.64.
